The values below come from publication PMC8678048 (Frontiers in Microbiology, 2021).

Chains of the proteins cited; added tags and fusions are not shown. Lines headed by an entry give the natural chain unless they say otherwise; changes in a name come on top.
UniProt Q00946: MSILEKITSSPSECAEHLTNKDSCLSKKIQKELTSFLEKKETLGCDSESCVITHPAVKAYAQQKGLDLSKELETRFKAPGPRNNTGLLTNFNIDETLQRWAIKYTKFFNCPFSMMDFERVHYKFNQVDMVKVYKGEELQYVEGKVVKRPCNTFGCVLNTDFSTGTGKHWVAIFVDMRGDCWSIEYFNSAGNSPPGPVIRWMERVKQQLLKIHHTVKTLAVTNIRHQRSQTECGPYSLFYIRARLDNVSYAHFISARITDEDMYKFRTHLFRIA

The target of this test is ASFV pS273R protease (African swine fever virus, UniProt Q00946). Kind of test: pS273R protease inhibition assay (Lineweaver–Burk, Dixon). To be noted: read-out: Ki value; substrate Bz-Nle-Gly-Gly-Arg-AMC; fluorescence ex 360nm, em 460nm; method of Dixon; mean±SEM; three independent experiments. It is filed as biochemical.

Structures are written as SMILES.

`CC[C@H](C)[C@@H]1NC(=O)CNC(=O)[C@H](CO)NC(=O)[C@@H]2CSSC[C@@H](C(=O)N[C@@H](Cc3ccc(O)cc3)C(=O)O)NC(=O)[C@H](CCCCN)NC(=O)[C@@H]3CSSC[C@H](NC(=O)[C@H](CCC(N)=O)NC(=O)[C@H](Cc4ccc(O)cc4)NC(=O)[C@H](CCC(N)=O)NC(=O)[C@H](CC(N)=O)NC(=O)[C@H](Cc4ccccc4)NC(=O)[C@@H]4CCCN4C(=O)[C@@H](NC(=O)CNC(=O)[C@H](Cc4ccc(O)cc4)NC(=O)CN)CSSC[C@H](NC(=O)[C@H](Cc4ccc(O)cc4)NC(=O)CNC(=O)CNC(=O)[C@H](CCCCN)NC(=O)[C@H](Cc4ccc(O)cc4)NC(=O)CNC(=O)[C@H](CCCNC(=N)N)NC1=O)C(=O)N[C@@H](CCCCN)C(=O)NCC(=O)N[C@@H]([C@@H](C)O)C(=O)N[C@@H](Cc1ccccc1)C(=O)N[C@@H](CCCCN)C(=O)N[C@@H](CCC(N)=O)C(=O)N[C@@H]([C@@H](C)O)C(=O)N3)C(=O)N[C@@H](Cc1c[nH]cn1)C(=O)N[C@@H](CO)C(=O)N[C@@H](Cc1c[nH]cn1)C(=O)N2` [OPTX-1]: the Ki is 821 nM.
